In paper PMC7864994, “Structure and binding properties of Pangolin-CoV spike glycoprotein inform the evolution of SARS-CoV-2” (2021):

Target: Pangolin-CoV S ectodomain (Pangolin coronavirus MP789 isolate spike) (Pangolin coronavirus MP789 isolate (from Malayan pangolin, Manis javanica))
Experiment: cryo-EM structure

Pangolin-CoV S ectodomain (Pangolin coronavirus MP789 isolate spike) (domain or fragment)
stoichiometry N: 3
